Legend:
factor Xa = factor Xa (Homo sapiens, UniProt P00742); assay: Enzyme inhibition assay with purified factor Xa (Ki, dose-response); type: biochemical; conditions: for factor Xa activity, Mean (Fig. 2d): normalized, 0 nM = 100
[1] = system: lentiviral pseudoparticles carrying SARS-CoV-2 Wuhan-Hu-1 spike, Caco-2 cells; assay: Pseudovirus inhibition assay, wild-type (Wuhan-Hu-1) spike; conditions: for SARS-CoV-2 spike driven entry, Mean (0 nM = 100): Fig. 5a, Wuhan-Hu-1 spike pseudoparticles
[2] = system: lentiviral pseudoparticles carrying SARS-CoV-2 Delta (B.1.617.2) spike, Caco-2 cells; assay: Pseudovirus inhibition assay, Delta spike; conditions: for SARS-CoV-2 spike driven entry, Mean (0 nM = 100): Fig. 5d, Delta spike pseudoparticles
[3] = system: lentiviral pseudoparticles carrying SARS-CoV-2 Omicron BA.1 (B.1.1.529) spike, Caco-2 cells; assay: Pseudovirus inhibition assay, Omicron BA.1 spike; conditions: for SARS-CoV-2 spike driven entry, Mean (0 nM = 100): Fig. 5e, Omicron BA.1 spike pseudoparticles
[4] = system: SARS-CoV-2 Wuhan-Hu-1, Caco-2 cells; assay: SARS-CoV-2 inhibition assay, Wuhan-Hu-1 (in-cell ELISA); conditions: for SARS-CoV-2 infection, Mean (0 nM = 100): Fig. 6a, Wuhan-Hu-1
[5] = system: SARS-CoV-2 Alpha (B.1.1.7), Caco-2 cells; assay: SARS-CoV-2 inhibition assay, VOC Alpha (in-cell ELISA); conditions: Fig. 6c, VOC Alpha

By UniProt entry, the sequences of proteins in these tests, tags left out. Residues count along the entry.
UniProt P00742, 235-488 limits assumed: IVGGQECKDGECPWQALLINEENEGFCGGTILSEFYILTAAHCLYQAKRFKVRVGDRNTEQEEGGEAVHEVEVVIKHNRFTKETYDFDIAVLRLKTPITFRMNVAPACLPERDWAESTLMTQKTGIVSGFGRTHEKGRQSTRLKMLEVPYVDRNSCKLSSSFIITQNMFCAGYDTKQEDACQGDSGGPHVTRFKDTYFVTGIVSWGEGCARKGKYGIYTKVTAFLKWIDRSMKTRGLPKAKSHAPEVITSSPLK
UniProt P00742, 41-179 partner limits assumed: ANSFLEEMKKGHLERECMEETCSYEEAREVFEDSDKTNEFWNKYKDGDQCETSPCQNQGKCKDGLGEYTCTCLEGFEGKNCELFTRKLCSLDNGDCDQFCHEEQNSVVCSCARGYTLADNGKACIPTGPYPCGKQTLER

**Q.** `CC(=O)N[C@H](CCCNC(=N)N)C(=O)N[C@@H](CC1CCC1)C(=O)NC(CCCNC(=N)N)C(=O)c1nc2ccccc2s1` (stereo partly drawn) was tested. Which “factor Xa activity, Mean (Fig. 2d)” value (factor Xa; 0.02 nM) did it give?
**A.** Its value is 80.6823.

**Q.** What about the “factor Xa activity, Mean (Fig. 2d)” value (factor Xa; 0.04 nM) of the same compound?
**A.** The value was 88.0695.

**Q.** And the “factor Xa activity, Mean (Fig. 2d)” value (factor Xa; 0.2 nM)?
**A.** The value was 90.3417.

**Q.** And the “factor Xa activity, Mean (Fig. 2d)” value (factor Xa; 2 nM)?
**A.** The value was 86.223.

**Q.** What about the “factor Xa activity, Mean (Fig. 2d)” value (factor Xa; 20 nM) of the same compound?
**A.** The value was 73.4383.

**Q.** What about the “factor Xa activity, Mean (Fig. 2d)” value (factor Xa; 200 nM) of the same compound?
**A.** The value was 51.421.

**Q.** And the “factor Xa activity, Mean (Fig. 2d)” value (factor Xa; 10000 nM)?
**A.** Its value is 14.3467.

**Q.** And the “factor Xa activity, Mean (Fig. 2d)” value (factor Xa; 100000 nM)?
**A.** The value was 8.523.

**Q.** And the “factor Xa activity, Mean (control = 100), S6c” value (from here on “factor Xa activity, Mean … S6c”) (factor Xa; inhibitor 0.02 nM)?
**A.** Its value is 80.6823.

**Q.** And the “factor Xa activity, Mean … S6c” value (factor Xa; inhibitor 0.04 nM)?
**A.** Its value is 88.0695.

**Q.** And the “factor Xa activity, Mean … S6c” value (factor Xa; inhibitor 0.2 nM)?
**A.** Its value is 90.3417.

**Q.** What about the “factor Xa activity, Mean … S6c” value (factor Xa; inhibitor 2 nM) of the same compound?
**A.** Its value is 86.223.

**Q.** What about the “factor Xa activity, Mean … S6c” value (factor Xa; inhibitor 20 nM) of the same compound?
**A.** Its value is 73.4383.

**Q.** What about the “factor Xa activity, Mean … S6c” value (factor Xa; inhibitor 200 nM) of the same compound?
**A.** Its value is 51.421.

**Q.** And the “factor Xa activity, Mean … S6c” value (factor Xa; inhibitor 10000 nM)?
**A.** Its value is 14.3467.

**Q.** What about the “factor Xa activity, Mean … S6c” value (factor Xa; inhibitor 100000 nM) of the same compound?
**A.** The value was 8.523.

**Q.** And the Selectivity index Factor Xa (factor Xa; quotient Ki factor Xa / Ki TMPRSS2)?
**A.** Its Selectivity index Factor Xa is 1.6.

**Q.** What about the Ki (factor Xa; read-out: Ki Factor Xa, 30 min preincubation, substrate Bz-Ile-Glu-Gly-Arg-pNA) of the same compound?
**A.** The Ki was 94.1 nM.

**Q.** What about the “SARS-CoV-2 spike driven entry, Mean (0 nM = 100)” value (“SARS-CoV-2 spike driven entry” for short) ([1]; compound 32 nM) of the same compound?
**A.** Its value is 85.6235.

**Q.** And the “SARS-CoV-2 spike driven entry” value ([1]; compound 160 nM)?
**A.** Its value is 86.7995.

**Q.** What about the “SARS-CoV-2 spike driven entry” value ([1]; compound 800 nM) of the same compound?
**A.** The value was 64.438.

**Q.** And the “SARS-CoV-2 spike driven entry” value ([1]; compound 4000 nM)?
**A.** Its value is 44.7705.

**Q.** What about the “SARS-CoV-2 spike driven entry” value ([1]; compound 20000 nM) of the same compound?
**A.** Its value is 12.775.

**Q.** And the “SARS-CoV-2 spike driven entry” value ([1]; compound 100000 nM)?
**A.** The value was 2.464.

**Q.** What about the IC50 ([1]; read-out: IC50 pseudotyped lentivirus Wuhan-Hu-1, Caco-2 cells, luciferase 2 days post transduction) of the same compound?
**A.** Its IC50 is 2070 nM.

**Q.** What about the “SARS-CoV-2 spike driven entry” value ([2]; compound 3.2 nM) of the same compound?
**A.** The value was 92.9751.

**Q.** And the “SARS-CoV-2 spike driven entry” value ([2]; compound 16 nM)?
**A.** The value was 100.33.

**Q.** What about the “SARS-CoV-2 spike driven entry” value ([2]; compound 80 nM) of the same compound?
**A.** Its value is 85.6739.

**Q.** And the “SARS-CoV-2 spike driven entry” value ([2]; compound 400 nM)?
**A.** Its value is 79.1202.

**Q.** What about the “SARS-CoV-2 spike driven entry” value ([2]; compound 2000 nM) of the same compound?
**A.** The value was 58.8733.

**Q.** And the “SARS-CoV-2 spike driven entry” value ([2]; compound 10000 nM)?
**A.** Its value is 21.9072.

**Q.** And the “SARS-CoV-2 spike driven entry” value ([2]; compound 50000 nM)?
**A.** Its value is 4.684.

**Q.** And the IC50 ([2]; read-out: IC50 pseudotyped lentivirus Delta, Caco-2 cells, luciferase 2 days post transduction)?
**A.** The IC50 was 2370 nM.

**Q.** And the “SARS-CoV-2 spike driven entry” value ([3]; compound 3.2 nM)?
**A.** The value was 103.666.

**Q.** And the “SARS-CoV-2 spike driven entry” value ([3]; compound 16 nM)?
**A.** Its value is 113.557.

**Q.** And the “SARS-CoV-2 spike driven entry” value ([3]; compound 80 nM)?
**A.** The value was 97.4995.

**Q.** What about the “SARS-CoV-2 spike driven entry” value ([3]; compound 400 nM) of the same compound?
**A.** Its value is 81.636.

**Q.** And the “SARS-CoV-2 spike driven entry” value ([3]; compound 2000 nM)?
**A.** Its value is 44.3593.

**Q.** And the “SARS-CoV-2 spike driven entry” value ([3]; compound 10000 nM)?
**A.** The value was 14.8062.

**Q.** And the “SARS-CoV-2 spike driven entry” value ([3]; compound 50000 nM)?
**A.** The value was 6.34.

**Q.** What about the IC50 ([3]; read-out: IC50 pseudotyped lentivirus Omicron BA.1, Caco-2 cells, luciferase 2 days post transduction) of the same compound?
**A.** The IC50 was 1700 nM.

**Q.** What about the “SARS-CoV-2 infection, Mean (0 nM = 100)” value ([4]; compound 32 nM) of the same compound?
**A.** Its value is 96.6009.

**Q.** What about the “SARS-CoV-2 infection, Mean (0 nM = 100)” value ([4]; compound 160 nM) of the same compound?
**A.** The value was 91.5577.

**Q.** What about the “SARS-CoV-2 infection, Mean (0 nM = 100)” value ([4]; compound 800 nM) of the same compound?
**A.** Its value is 91.9279.

**Q.** What about the “SARS-CoV-2 infection, Mean (0 nM = 100)” value ([4]; compound 4000 nM) of the same compound?
**A.** Its value is 91.0242.

**Q.** And the “SARS-CoV-2 infection, Mean (0 nM = 100)” value ([4]; compound 20000 nM)?
**A.** Its value is 52.5277.

**Q.** And the “SARS-CoV-2 infection, Mean (0 nM = 100)” value ([4]; compound 100000 nM)?
**A.** Its value is -3.542.

**Q.** And the IC50 ([4]; read-out: IC50 SARS-CoV-2 Wuhan-Hu-1, Caco-2 cells, in-cell ELISA 2 days post infection)?
**A.** The IC50 was 20400 nM.

**Q.** What about the “SARS-CoV-2 infection, Mean (0 nM = 100)” value ([5]; compound 32 nM) of the same compound?
**A.** Its value is 99.603.

**Q.** What about the “SARS-CoV-2 infection, Mean (0 nM = 100)” value ([5]; compound 160 nM) of the same compound?
**A.** Its value is 94.5642.

**Q.** What about the “SARS-CoV-2 infection, Mean (0 nM = 100)” value ([5]; compound 800 nM) of the same compound?
**A.** The value was 94.1372.

**Q.** What about the “SARS-CoV-2 infection, Mean (0 nM = 100)” value ([5]; compound 4000 nM) of the same compound?
**A.** The value was 99.1068.

**Q.** And the “SARS-CoV-2 infection, Mean (0 nM = 100)” value ([5]; compound 20000 nM)?
**A.** The value was 64.1559.

**Q.** What about the “SARS-CoV-2 infection, Mean (0 nM = 100)” value ([5]; compound 100000 nM) of the same compound?
**A.** The value was -1.589.
